Results published in the supplement of paper PMC3578754.

Columns and labels:
Test in all cases: fold change of IC50 against reference virus; higher = more resistant; Cell-culture drug susceptibility tests of virus bearing the protease of each isolate, gathered from many studies.
indinavir = compound: CC(C)(C)NC(=O)[C@@H]1CN(Cc2cccnc2)CCN1C[C@@H](O)C[C@@H](Cc1ccccc1)C(=O)N[C@H]1c2ccccc2C[C@H]1O [indinavir]
saquinavir = compound: CC(C)(C)NC(=O)[C@@H]1C[C@@H]2CCCC[C@@H]2CN1C[C@@H](O)[C@H](Cc1ccccc1)NC(=O)[C@H](CC(N)=O)NC(=O)c1ccc2ccccc2n1 [saquinavir]
nelfinavir = compound: Cc1c(O)cccc1C(=O)N[C@@H](CSc1ccccc1)[C@H](O)CN1C[C@H]2CCCC[C@H]2C[C@H]1C(=O)NC(C)(C)C [nelfinavir]

Test System	fold change of IC50 against reference virus (indinavir)	fold change of IC50 against reference virus (saquinavir)	fold change of IC50 against reference virus (nelfinavir)
HIV-1 isolate 916 (protease changes: K14R N37E K43R L63T I64M A71V I72T I93L, study 90)	0.4	1	
HIV-1 isolate 689 (protease changes: M46F R57G, study 133)			1
HIV-1 isolate 116 (protease changes: T12S I15V R41K L63S I64V, study 68)			1
HIV-1 isolate 1552 (protease changes: none, study 37)	1	1	
HIV-1 isolate 53 (protease changes: L10F I84V, study 71)		4	
HIV-1 isolate 415 (protease changes: G48V L90M, study 71)		17	
HIV-1 isolate 345 (protease changes: I84V, study 71)		1	
HIV-1 isolate 801 (protease changes: M46L I50V, study 60)	0.3	0.2	
HIV-1 isolate 1484 (protease changes: R8K M46I G48V, study 60)	1	1	
HIV-1 isolate 241 (protease changes: V32I M46L A71V V82A, study 60)	6	0.2	
HIV-1 isolate 1059 (protease changes: R57G V82A, study 133)			1
HIV-1 isolate 1203 (protease changes: L10F I84V, study 37)	4	2	
HIV-1 isolate 712 (protease changes: L10I I13V R41K A71T V82A, study 19)		2	
HIV-1 isolate 273 (protease changes: T12Q I15V L19I M36I D60E L63P L90M, study 90)	1	1.7	
HIV-1 isolate 391 (protease changes: R57G L90M, study 133)			5
HIV-1 isolate 802 (protease changes: L63P L90M, study 90)	1.5	1.5	
HIV-1 isolate 1118 (protease changes: G48V R57G A71V I84V, study 52)		100	
HIV-1 isolate 1114 (protease changes: R57G, study 133)			1
HIV-1 isolate 1387 (protease changes: M46F R57G V82A, study 133)			1
HIV-1 isolate 1232 (protease changes: M46I R57G L63P I84V, study 133)			30

Test System	fold change of IC50 against reference virus (indinavir)	fold change of IC50 against reference virus (saquinavir)	fold change of IC50 against reference virus (nelfinavir)
HIV-1 isolate 1242 (protease changes: R41K Q58E L63P L90M, study 90)	1	1.1	
HIV-1 isolate 1341 (protease changes: G48V A71V I84V L90M, study 60)	4	40	
HIV-1 isolate 1559 (protease changes: I13V L63P, study 90)	0.9	1	
HIV-1 isolate 742 (protease changes: none, study 73)		1	
HIV-1 isolate 1413 (protease changes: L10F K45I I84V, study 60)	3	3	
HIV-1 isolate 219 (protease changes: I13V D60E I64V, study 90)	1	1	
HIV-1 isolate 923 (protease changes: N37D L63T A71T V77I L90M I93L, study 90)	0.6	0.7	
HIV-1 isolate 879 (protease changes: M36I N37D L63P I93L, study 90)	0.7	1.1	
HIV-1 isolate 349 (protease changes: I15V M36I R41K K45R I62V L63P A71T N88D L90M I93L, study 90)	4.3	3.7	
HIV-1 isolate 1087 (protease changes: R57G, study 52)		1	
HIV-1 isolate 827 (protease changes: I84V L90M, study 71)		5	
HIV-1 isolate 464 (protease changes: V82A, study 71)		1	
HIV-1 isolate 979 (protease changes: none, study 71)		1	
HIV-1 isolate 610 (protease changes: L90M, study 71)		3	
HIV-1 isolate 1553 (protease changes: N37C I62V L63P V77I I93L, study 90)	0.8	1	
HIV-1 isolate 998 (protease changes: T12S K14R I15V L19I N37A R41K, study 90)	0.3	1	
HIV-1 isolate 1125 (protease changes: L10F M46I I47V I50V, study 37)	3	1	
HIV-1 isolate 1494 (protease changes: T12S I13V K14R G16E E35D N37A L63Q I64V, study 90)	0.5	0.9	
HIV-1 isolate 574 (protease changes: M46L V82A, study 60)	2	0.2	
HIV-1 isolate 587 (protease changes: L10I I15V E35D N37E K45R I54V L63P A71V V82T L90M I93L C95F, study 32)	31		

Test System	fold change of IC50 against reference virus (indinavir)	fold change of IC50 against reference virus (saquinavir)	fold change of IC50 against reference virus (nelfinavir)
HIV-1 isolate 1487 (protease changes: L10I L19I D60E L63P I64V A71V I72T P79D I84V L90M I93L, study 90)	3.5	5.3	
HIV-1 isolate 85 (protease changes: G48V, study 73)		7	
HIV-1 isolate 725 (protease changes: G48V R57G, study 52)		10	
HIV-1 isolate 1046 (protease changes: K43R L63P A71V I93L, study 90)	0.7	1	
HIV-1 isolate 97 (protease changes: N37T L63P I64L V77I, study 90)	1	1	
HIV-1 isolate 26 (protease changes: M46I I50V, study 60)	0.5	0.4	
HIV-1 isolate 1101 (protease changes: L90M, study 73)		3	
HIV-1 isolate 48 (protease changes: I15V R57K L63P, study 90)	0.7	1	
HIV-1 isolate 119 (protease changes: L10I L24I E35D M36I M46L I54V R57K I62V L63P A71V G73S V82A, study 32)	59		
HIV-1 isolate 139 (protease changes: L10R N37D M46I I62V L63P A71V G73S V77I V82T L90M I93L, study 32)	59		
HIV-1 isolate 1279 (protease changes: L10F I84V, study 60)	1	3	
HIV-1 isolate 1339 (protease changes: L10I K14R R41K M46L I54V L63P A71V V82A L90M I93L, study 32)	14		
HIV-1 isolate 589 (protease changes: G48V L90M, study 60)	2	36	
HIV-1 isolate 1319 (protease changes: L10I M46L I54V L63P A71V V82A L90M, study 32)	59		
HIV-1 isolate 709 (protease changes: G48V R57G A71V I84V L90M, study 52)		120	
HIV-1 isolate 326 (protease changes: L10I I13V R41K, study 19)		1	
HIV-1 isolate 1516 (protease changes: G48V L90M, study 73)		20	
HIV-1 isolate 200 (protease changes: L10F M46I I47V I50V D60V, study 37)	4	1	
HIV-1 isolate 1227 (protease changes: none, study 60)	1	1	

Fold change is the IC50 on the isolate divided by the IC50 on a reference virus; 1 = unchanged, higher = more resistant. Changes are given against the subtype B consensus. No active / inactive call. The values were gathered from many studies (numbered anew) with different assays, which the source does not name. Most viruses are clinical isolates; some are laboratory strains or clones with known resistance changes. Isolates with mixed residues are left out; stretches that were not sequenced show no change. Round top values that many isolates share are read here as limits; other very high values and 0.1 may be limits too. The protease changes I3V and N37S, insertions and deletions cannot be read from the source.
